Anti-infective test results gathered from many reports (values: NIAID ChemDB through PubChem).

All rows: whole-cell or culture tests; agent: Mycobacterium avium; endpoint: MIC

Two numbers with a dash give a range or band.

| structure | strain | setting | result |
|---|---|---|---|
| O=C(Nc1ccccc1)c1ccccc1O | MY330/88 |  | 125 µM |
| CC(C)(C)n1cc(C(=O)O)c(=O)c2cc(F)c(N3CCC(N)C3)nc21 | 14 strains |  | 0.1–12.5 µg/mL |
| CO[C@H]1/C=C/O[C@@]2(C)Oc3c(C)c(O)c4c(O)c(c5c(c4c3C2=O)NC2(CCN(CC(C)C)CC2)N=5)=NC(=O)/C(C)=C\C=C\[C@H](C)[C@H](O)[C@@H](C)[C@@H](O)[C@@H](C)[C@H](OC(C)=O)[C@@H]1C | Isolate 90-1815 |  | 0.2 µg/mL |
| O=C(Nc1ccc(Cl)cc1)c1cc(Cl)ccc1OP(=O)(Oc1ccccc1)c1ccccc1 | MY330/88 | 7 d | 16 µM |
| c1cncc(CSc2nc3ccccc3o2)c1 | MY330/88 |  | 250 µM |
| CCN1CCN(c2c(F)cc3c(=O)c(C(=O)O)cn(C4CC4)c3c2OC)CC1 | 14 strains |  | 0.1–12.5 µg/mL |
| CCOc1c(N2CCC(C(C)(C)N)C2)c(F)cc2c(=O)c(C(=O)O)cn(C3CC3)c12 | 1915112 |  | ≤4 µg/mL |
| c1cncc(CSc2nc3ccccc3[nH]2)c1 | MY330/88 |  | 1000 µM |
| O=C1c2cc(Cl)ccc2OP(=O)(c2ccccc2)N1c1ccc(C(F)(F)F)cc1 | MY330/88 | 14 d | 8 µM |
| CN(C)c1ccc(NC(=O)c2ccccc2O)cc1 | MY330/88 |  | 250 µM |
| O=C(Nc1ccc(Cl)c(Cl)c1)c1cc(Cl)ccc1OP(=O)(c1ccccc1)c1ccccc1 | MY330/88 | 7 d | 16 µM |
| COc1ccc2ccc(=O)oc2c1CC(=O)C(C)C | Isolate 733 HIV-positive |  | >100 µg/mL |
| CC[C@@H](CO)NCCN[C@@H](CC)CO | RG4 |  | 32 µg/mL |
| NC(=S)c1cc(SCc2ccncc2)ccn1 | MY330/88 |  | 32 µM |
| O=C(O)c1cn(C2CC2)c2c(F)c(N3CCS(=O)CC3)c(F)cc2c1=O | 1915112 |  | 2–4 µg/mL |
| CC(C)(O)[C@H](O)COc1c2occc2cc2ccc(=O)oc12 | Isolate 733 HIV-positive |  | 100 µg/mL |
| CC1CN(c2c(F)cc3c(=O)c(C(=O)O)cn(C4CC4)c3c2Br)CCN1 | 14 strains |  | 0.1–12.5 µg/mL |
| O=C1c2cc(Br)ccc2OP(=O)(c2ccccc2)N1c1ccc(C(F)(F)F)cc1 | MY330/88 | 14 d | 8 µM |
| NC1CCN(c2c(F)cc3c(=O)c(C(=O)O)cn(C4CC4)c3c2F)C1 | 1915112 |  | 16 µg/mL |
| CC[C@H]1C[C@@H]2CN3CCc4c([nH]c5ccc(OC)cc45)[C@](C(=O)OC)(C2)[C@H]13 | Isolate 733 HIV-positive |  | >200 µg/mL |
| NC(=S)c1cc(SCc2cccnc2)ccn1 | MY330/88 |  | >32 µM |
| CO[C@H]1/C=C/O[C@@]2(C)Oc3c(C)c(O)c4c(=O)c(c5oc6cc(N7CCN(CC(C)C)CC7)cc(=O)c6nc5c4c3=C2O)NC(=O)/C(C)=C\C=C\[C@H](C)[C@H](O)[C@@H](C)[C@@H](O)[C@@H](C)[C@H](OC(C)=O)[C@@H]1C | 453 |  | 0.016 µg/mL |
| CN(C)C/C=C(/c1ccc(-c2ccc(Br)cc2)cc1)c1cccs1 | ATCC 15769 |  | 40.4 µM |
| O=c1oc2ccccc2c(=O)n1-c1ccc(Br)cc1 | MY330/88 |  | 31 µM |
| COc1cc(/C=C/C=O)ccc1O | ATCC 25291 |  | 128 µg/mL |
| O=c1oc2ccccc2c(=O)n1-c1ccc([N+](=O)[O-])cc1 | MY330/88 |  | 31 µM |
| CC[C@H]1OC(=O)[C@H](C)[C@@H](O[C@H]2C[C@@](C)(OC)[C@@H](O)[C@H](C)O2)[C@H](C)[C@@H](O[C@@H]2O[C@H](C)C[C@H](N(C)C)[C@H]2O)[C@](C)(OC)C[C@@H](C)C(=O)[C@H](C)[C@@H](O)[C@]1(C)O | RG3 |  | 0.12 µg/mL |
| CC[C@@H](CO)NCCN[C@@H](CC)CO | ATCC 15769 |  | 14.4 µM |
| COc1ccc(-n2c(=O)oc3ccccc3c2=O)cc1 | MY330/88 |  | 31 µM |
| O=C(O)c1cn(C2CC2)c2c(F)c(N3CCNCC3)c(F)cc2c1=O | 1915112 |  | 2–4 µg/mL |
| O=c1oc2ccccc2c(=O)n1-c1cccc([N+](=O)[O-])c1 | MY330/88 |  | 31 µM |
| O=C(Nc1ccc(C(F)(F)F)cc1)c1cc(Br)ccc1OP(=O)(Oc1ccccc1)Oc1ccccc1 | MY330/88 | 14 d | 8 µM |
| CO[C@H]1/C=C/O[C@@]2(C)Oc3c(C)c(O)c4c(O)c(c5c(c4c3C2=O)NC2(CCN(CC(C)C)CC2)N=5)=NC(=O)/C(C)=C\C=C\[C@H](C)[C@H](O)[C@@H](C)[C@@H](O)[C@@H](C)[C@H](OC(C)=O)[C@@H]1C | 6-13 |  | <0.15 µg/mL |
| c1ccc2c(CSc3nc4ccccc4[nH]3)cccc2c1 | MY330/88 |  | 62.5 µM |
| CC(N)C1CCN(c2nc3c(cc2F)c(=O)c(C(=O)O)cn3C2CC2)C1 | 1915112 |  | 32 µg/mL |
| C=C1C2CC[C@H](C=O)C(O)(C=O)[C@@]2(C)CC[C@@H]1C | Isolate 733 HIV-positive |  | >200 µg/mL |
| O=C(O)c1cn(C2CC2)c2c(F)c(N3CCC(N4CCCC4)C3)c(F)cc2c1=O | 1915112 |  | ≤4 µg/mL |
| C[C@@H]1CN(c2cc3c(cc2F)c(=O)c(C(=O)O)cn3C(C)(C)C)C[C@H](C)N1 | 14 strains |  | 0.1–12.5 µg/mL |
| CCn1cc(C(=O)O)c(=O)c2cc(F)c(C(C)=O)cc21 | 1915112 |  | >32 µg/mL |
| c1ccc(CSc2nc3ccccc3o2)nc1 | MY330/88 |  | 250 µM |
| O=C(Nc1cccc(Cl)c1)c1ccccc1O | MY330/88 |  | 31 µM |
| CC1CN(c2c(F)cc3c(=O)c(C(=O)O)cn(C4CC4)c3c2F)CCN1 | 1915112 |  | 2–4 µg/mL |
| O=c1[nH]c2ccccc2c(=O)n1-c1ccc(Cl)c(Cl)c1 | MY330/88 |  | >125 µM |
| O=C(O)c1cn(C2CC2)c2c(F)c(N3CCS(=O)(=O)CC3)c(F)cc2c1=O | 1915112 |  | 2–4 µg/mL |

A second listing of 3 rows from above:

structure	strain	setting	result
C=C1C2CC[C@H](C=O)C(O)(C=O)[C@@]2(C)CC[C@@H]1C	Isolate 733 HIV-positive		>200 µg/mL
CC[C@@H](CO)NCCN[C@@H](CC)CO	ATCC 15769		14.4 µM
O=C(O)c1cn(C2CC2)c2c(F)c(N3CCC(N4CCCC4)C3)c(F)cc2c1=O	1915112		≤4 µg/mL

Blank or dashed fields: not listed here. Neighbouring rows are from separate reports.